# System: pLai RLuc reporter virus
# Assay: HIV MT-4 serum shift antiviral reporter assay
# Assay type: cell-based
# Details: EC50 (HS/CCM)/EC50 (CCM) fold shift, measure of protein binding
# Description: To quantify the amount of protein binding to human serum, compounds were serially diluted (1:3) in DMSO and acoustically transferred onto 384-well assay plates via a Labcyte ECHO robot. Each plate contained up to 8 test compounds, including negative and positive controls, (DMSO, 5 μM AZT respectively). Assay plates were prepared in duplicate, and tested in either CCM (cell culture media) or HS/CCM (human serum/cell culture media). MT-4 cells were first pre-infected with pLai RLuc reporter virus for 2 h at 37° C., then further diluted in either CCM (RPMI media, 10% FBS, 1% P/S) or HS/CCM (RPMI media, 10% FBS, 50% HS, 1% P/S), and subsequently added to each plate using a Biotek Micro Flow dispenser. After a 72-h incubation in a humidified and temperature controlled incubator (37° C.), Renilla Glo (Promega) was added to all assay plates and chemiluminescence read using an Envision plate-reader. EC50 values were defined as the compound concentration that causes a 50% decrease in luminescence signal, and were calculated using a sigmoidal dose-response model to generate curve fits. To determine the amount of protein binding, EC50 fold shifts (or EC50 shifts) were calculated by dividing EC50 (HS/CCM)/EC50 (CCM).
row,Structure (SMILES),RLUC Shift
1,"C[C@@H]1CCC(C)(C)N2CN1n1cc(C(=O)NCc3ccc(F)cc3F)c(=O)c(O)c1C2=O [Example C93, (1S,2R)—N-(2,4-difluorobenzyl)-8-hydroxy-2,5,5-trimethyl-7,9-dioxo-2,3,4,5,7,9-hexahydro-1,6-methanopyrido[1,2-b][1,2,5]triazonine-10-carboxamide]",84
2,"C[C@H]1CCC(C)(C)N2CN1n1cc(C(=O)NCc3ccc(F)cc3F)c(=O)c(O)c1C2=O [Example C94, (1R,2S)—N-(2,4-difluorobenzyl)-8-hydroxy-2,5,5-trimethyl-7,9-dioxo-2,3,4,5,7,9-hexahydro-1,6-methanopyrido[1,2-b][1,2,5]triazonine-10-carboxamide]",58
3,"C[C@@H]1CC[C@H](CF)N2CN1n1cc(C(=O)NCc3ccc(F)cc3F)c(=O)c(O)c1C2=O [Example C98, (1S,2R,5R)—N-(2,4-difluorobenzyl)-5-(fluoromethyl)-8-hydroxy-2-methyl-7,9-dioxo-2,3,4,5,7,9-hexahydro-1,6-methanopyrido[1,2-b][1,2,5]triazonine-10-carboxamide]",450
4,"O=C(NCc1c(F)cc(F)cc1F)c1cn2c(c(O)c1=O)C(=O)N1CCCCN2C1 [Example C108, (1R)-8-hydroxy-7,9-dioxo-N-(2,4,6-trifluorobenzyl)-2,3,4,5,7,9-hexahydro-1,6-methanopyrido[1,2-b][1,2,5]triazonine-10-carboxamide]",212
5,"O=C(NCc1c(F)cc(F)cc1F)c1cn2c(c(O)c1=O)C(=O)N1CCCCN2C1 [Example C109, (1S)-8-hydroxy-7,9-dioxo-N-(2,4,6-trifluorobenzyl)-2,3,4,5,7,9-hexahydro-1,6-methanopyrido[1,2-b][1,2,5]triazonine-10-carboxamide]",18

# Reference: patent publication US11613546B2, “Substituted pyridotriazine compounds and uses thereof” (Gilead Sciences, Inc., priority 2021, dated 2023)
